A mixed list of measured activities; the numbers were collected in NIAID ChemDB.

Shared fields: growth or infection tests; organism: Mycobacterium tuberculosis

A number after MIC or MFC names an inhibition level or a share of isolates. ECn is the concentration giving n% inhibition of infection, replication or growth. An empty or dashed field is not shown. MIC bound: limit read from a one-dose screen. Lines come from different laboratories, so protocols vary. Inhibition is in % at the dose shown (toxicity tests: loss of growth or viability).

SMILES	tested at	strain	setting	method	mutations	read-out	value
O=C1C=C(Nc2ccccc2N=C2C(N3C4=CCc5ccccc5C4=Nc4ccccc43)=CC(=O)c3ccccc32)C(=O)c2ccccc21	12.5 µg/mL	H37Rv		BACTEC		inhibition	93%
CC(C)Cc1ncc(C(N)=S)nc1Sc1ccccc1	12.5 µg/mL	H37Rv				inhibition	78%
C=C(C)[C@@H]1CC[C@]2(C(=O)O)CC[C@]3(C)C(CCC4[C@@]5(C)CC[C@H](OC(=O)/C=C/c6ccc(O)c(O)c6)C(C)(C)C5CC[C@]43C)C12		H37Ra		resazurin		MIC	200 µg/mL
O=C(c1nc2cc(C(F)(F)F)cc([N+](=O)[O-])c2s1)N1CCCCC1		H37Rv		resazurin / absorbance		MIC80	0.5 µg/mL
C/C=C/C(=O)Oc1cccc2c1C(=O)C=C(C)C2=O		H37Rv		resazurin		MIC	15.6 µM
O=P(O)(CN1CCN(CP(=O)(O)c2ccccc2)CCN(CP(=O)(O)c2ccccc2)CC1)c1ccccc1	12.5 µg/mL	H37Rv		BACTEC		inhibition	0%
CSc1nc(C(N)=S)cnc1CC(C)C		H37Rv				MIC	>12.5 µg/mL
C[C@@H]1CC[C@]2(C(=O)O)CC[C@]3(C)C(=CCC4[C@@]5(C)CC[C@H](OC(=O)/C=C/c6ccc(O)cc6)C(C)(C)C5CC[C@]43C)C2[C@H]1C		H37Ra		resazurin		MIC	6.25 µg/mL
O=C(N/N=C/c1ccccc1Cl)c1ccccc1-c1nc2ccccc2[nH]1	0.031 µg/mL	H37Rv				inhibition	35%
Cc1ccc(C(=O)Nc2ccc(Cl)c(Cl)c2)c(O)c1		CNCTC MY331/88				MIC	4 µM
CN1N=C(c2ccncc2)OC1c1cccc(Cl)c1		16PI				MIC	5 µg/mL
O=C1OCC2C(=O)OCC12	12.5 µg/mL	H37Rv		BACTEC		inhibition	0%
O=C(N/N=C/c1cccc([N+](=O)[O-])c1)c1ccccc1-c1nc2ccccc2[nH]1	0.031 µg/mL	H37Rv				inhibition	52%
CCOC(=O)/C(O)=C(/C=NC(=S)c1ccncc1)C(=O)OCC		H37Rv		resazurin		MIC bound	>6.25 µg/mL
O=C(O)c1cn(C2CC2)c2cc(N3CCNCC3)c(F)cc2c1=O		30 isolates/HIV+				MIC90	8 µg/mL
Cc1cc(NS(=O)(=O)c2ccc(NC(=O)N3CCC3)cc2)no1		H37Rv	14 d	broth dilution / absorbance		MIC100	2 µM
CN1N=C(c2ccncc2)OC1c1ccc(F)cc1		6 PI				MIC	>20 µg/mL
Cc1cc(C)c2c(=O)n(CC(O)CN3CCN(c4ccccc4)CC3)sc2n1		H37Rv		BACTEC		EC50	>12.5 µg/mL
O=C1C=C(Nc2ccccc2C(=O)CC(=O)C(=O)Nc2ccc(Cl)cc2)c2ccccc2C1=O		H37Rv		resazurin		MIC bound	<6.25 µg/mL
CCCCSc1nc(C(N)=O)cnc1C(C)(C)C		H37Rv				MIC	>12.5 µg/mL
COCCN1CCN(C(=O)c2nc3cc(C(F)(F)F)c(C)c([N+](=O)[O-])c3s2)CC1		H37Rv		resazurin / absorbance	Overexpressing Rv3790 (DprE1)	MIC80	8 µg/mL
O=C(Nc1ccc(Br)cc1)c1cc(F)ccc1O		CNCTC MY331/88				MIC	8 µM
[N-]=[N+]=CC(=O)CC[C@H](NC(=O)OCc1ccccc1)C(=O)OCc1ccccc1	6.25 µg/mL	H37Rv		resazurin		inhibition	99%
O=C(N/N=C/c1ccccc1)c1ccccc1-c1nc2ccccc2[nH]1		H37Rv				EC50	>0.031 µg/mL
COc1ccc(C2OC(c3ccncc3)=NN2C)cc1F		6 PI				MIC	>20 µg/mL
C[C@@H]1CC[C@]2(C(=O)O)CC[C@]3(C)C(=CCC4[C@@]5(C)CC[C@H](OC(=O)/C=C/c6ccc(Cl)cc6)C(C)(C)C5CC[C@]43C)C2[C@H]1C		H37Ra		resazurin		MIC	>200 µg/mL
CC(C)(C)c1ncc(C(N)=S)nc1Sc1ccccc1		H37Rv				MIC	>12.5 µg/mL
O=C(N[C@@H](CO)C(=O)N1CCCC1)c1nc2cc(C(F)(F)F)cc([N+](=O)[O-])c2s1		H37Rv		resazurin / absorbance		MBC	1 µg/mL
CSc1nc(C(N)=S)cnc1C(C)(C)C		H37Rv				MIC	>6.25 µg/mL
CCN(CC)CCCNc1cc(OC)cc2nc3cc(Cl)ccc3nc12.Cl.Cl		H37Rv		BACTEC		MIC bound	≤12.5 µg/mL
NCC[C@H](O)C(=O)N[C@@H]1C[C@H](N)[C@@H](O[C@H]2O[C@H](CN)[C@@H](O)[C@H](O)[C@H]2O)[C@H](O)[C@H]1O[C@H]1O[C@H](CO)[C@@H](O)[C@H](N)[C@H]1O		30 isolates/HIV+				MIC50	64 µg/mL
Cc1cc(C)c2c(OCCCCN3CCN(c4ccccc4)CC3)nsc2n1	12.5 µg/mL	H37Rv		BACTEC		inhibition	2%
CC1=C(C)C(=O)O[C@H]([C@](C)(O)[C@]2(O)CC[C@@]3(O)[C@@H]4C[C@H](O)[C@]5(O)C(O)C=CC(=O)[C@]5(C)[C@H]4CC[C@]23C)C1	12.5 µg/mL	H37Rv		BACTEC		inhibition	1%
CC(C)=CCOc1c2ccoc2cc2oc(=O)ccc12		H37Rv clinical isolate CRY5		resazurin	Isoniazid-resistant	MIC100	200 µg/mL
CN1N=C(c2ccncc2)OC1c1cccc(F)c1		H37Rv				MIC	>20 µg/mL
CCCCCCNC(=O)Nc1ccc(S(=O)(=O)Nc2cc(C)on2)cc1		H37Rv	14 d	broth dilution / absorbance		MIC100	250 µM
Cc1c(C(=O)CC2OC(=O)C(Cl)=C2Cl)c2ccccc2n1C(=O)Nc1ccc(Cl)cc1	12.5 µg/mL	H37Rv		BACTEC		inhibition	49%
O=C(N/N=C/c1ccccc1[N+](=O)[O-])c1ccccc1-c1nc2ccccc2[nH]1	0.031 µg/mL	H37Rv				inhibition	48%
NNC(=O)C(=O)NNC1CCCCC1		H37Rv		BACTEC		MIC bound	>12.5 µg/mL
O=C(N/N=C/c1ccco1)c1ccccc1-c1nc2ccccc2[nH]1		H37Rv				EC50	>0.031 µg/mL
CC(=O)N1c2ccccc2C2=NN(C)C(=N)SC21		H37Rv		resazurin		MIC bound	>6.25 µg/mL
CCCSc1nc(C(N)=S)cnc1CCC	12.5 µg/mL	H37Rv				inhibition	<90%
CN1N=C(c2ccncc2)OC1c1ccccc1F		6 PI				MIC	>20 µg/mL
CC(=O)C1(N=Nc2ccc(S(=O)(=O)O)cc2)CCOC1=O		H37Rv		BACTEC		MIC bound	>12.5 µg/mL
Cc1cc(NS(=O)(=O)c2ccc(NC(=O)Nc3ccc(S(=O)(=O)Nc4cc(C)on4)cc3)cc2)no1		H37Rv	14 d	broth dilution / absorbance		MIC100	2 µM
CCOC(=O)NN(C(=O)OCC)c1c(N(C)NC(C)=O)nc(N)[nH]c1=O		H37Rv		BACTEC		MIC bound	>12.5 µg/mL
CCn1cc(C(=O)O)c(=O)c2cc(F)c(N3CCNCC3)cc21		H37Rv				MIC	5 µg/mL
CCc1cn(COCCO)c(=O)[nH]c1=O		H37Ra				EC50	>100 µg/mL
CCC(=O)Oc1cccc2c1C(=O)C=C(C)C2=O		H37Rv		resazurin		MIC	16.4 µM
CCCCc1ncc(C(N)=S)nc1Sc1ccccc1		H37Rv				MIC	<6.25 µg/mL
COc1cc(/C=N/NC(=O)c2ccccc2-c2nc3ccccc3[nH]2)ccc1O	0.031 µg/mL	H37Rv				inhibition	64%
CCCCNC(=O)Nc1ccc(S(=O)(=O)Nc2cc(C)on2)cc1		H37Rv	14 d	broth dilution / absorbance		MIC100	62.5 µM
CN1N=C(c2ccncc2)OC1c1ccc(Cl)c(Cl)c1		H37Rv				MIC	10 µg/mL
COCCN1CCN(C(=O)c2nc3cc(C(F)(F)F)cc([N+](=O)[O-])c3s2)CC1		H37Rv		resazurin / absorbance	BTZ-resistant (C387G)	MIC80	64 µg/mL
CCCCCCCNC(=O)Nc1ccc(S(=O)(=O)Nc2cc(C)on2)cc1		H37Rv	14 d	broth dilution / absorbance		MIC100	250 µM
Cc1cc(C)c2c(=O)n(CC(=O)N3CCN(c4ccccc4)CC3)sc2n1	12.5 µg/mL	H37Rv		BACTEC		inhibition	100%
[N-]=[N+]=NC(CBr)c1cn(COCCO)c(=O)[nH]c1=O		H37Ra				EC50	10 µg/mL
Cc1cc(NS(=O)(=O)c2ccc(NC(=O)N(C(C)C)C(C)C)cc2)no1		H37Rv	14 d	broth dilution / absorbance		MIC100	125 µM
O=c1[nH]c(=O)n(COCCO)cc1Cl		H37Ra				EC50	>100 µg/mL
C=C(C)[C@@H]1CC[C@]2(C(=O)O)CC[C@]3(C)C(CCC4[C@@]5(C)CC[C@H](OC(=O)/C=C/c6ccccc6)C(C)(C)C5CC[C@]43C)C12		H37Ra		resazurin		MIC	>200 µg/mL
NC(=O)c1ccc([N+](=O)[O-])o1	6.25 µg/mL	H37Rv		resazurin		inhibition	-22%
CN(CC(=O)NN)c1ccc2ccccc2c1		Drug-resistant				EC50	2 µg/mL
O=C(NCc1ccccc1)C1(C(=O)NCc2ccccc2)SSC(C(=O)NCc2ccccc2)(C(=O)NCc2ccccc2)SS1	6.25 µg/mL	H37Rv				inhibition	20%
O=C(Nc1cccc(F)c1)c1cc(Br)ccc1O		CNCTC MY331/88				MIC	8 µM
CC(=O)Oc1ccc(/C=C/C(=O)O[C@H]2CC[C@@]3(C)C(CC[C@]4(C)C3CC=C3C5CC(C)(C)CC[C@]5(C(=O)O)CC[C@]34C)C2(C)C)cc1OC(C)=O		H37Ra		resazurin		MIC	12.5 µg/mL
CN1N=C(c2ccncc2)OC1c1cccc(C(F)(F)F)c1		6 PI				MIC	>20 µg/mL
Cc1ccc(S(=O)(=O)NNC(=O)c2ccccc2NCCO)cc1		H37Rv		BACTEC		MIC bound	>12.5 µg/mL
COc1ccccc1N1CCN(CCCCN2C(=O)c3c(C)cc(C)nc3S2(=O)=O)CC1	12.5 µg/mL	H37Rv		BACTEC		inhibition	0%
C[C@@H]1CC[C@]2(C(=O)O)CC[C@]3(C)C(=CCC4[C@@]5(C)CC[C@H](OC(=O)/C=C/c6ccc(O)c(O)c6)C(C)(C)C5CC[C@]43C)C2[C@H]1C		H37Ra		resazurin		MIC	200 µg/mL
COc1ccccc1N1CCN(CCCCOc2nsc3nc(C)cc(C)c23)CC1		H37Rv		BACTEC		EC50	>12.5 µg/mL
N#Cc1c[nH]n2ccnc12	12.5 µg/mL	H37Rv		BACTEC		inhibition	0%
[N-]=[N+]=NC(CI)c1cn(COC(CO)CO)c(=O)[nH]c1=O		H37Ra				EC50	>100 µg/mL
C=C(C)[C@@H]1CC[C@]2(C(=O)O)CC[C@]3(C)C(CCC4[C@@]5(C)CC[C@H](OC(=O)/C=C/c6ccc(O)cc6)C(C)(C)C5CC[C@]43C)C12		H37Ra		resazurin		MIC	6.25 µg/mL
COc1ccc(/C=N/NC(=O)c2ccccc2-c2nc3ccccc3[nH]2)cc1		H37Rv				EC50	>0.031 µg/mL
CC(CC(=O)NN)Nc1ccc2ccccc2c1		H37Rv				EC50	5 µg/mL
CC1=CC(=O)c2c(O)cccc2C1=O		H37Rv		resazurin		MIC	21.3 µM
CCSc1nc(C(N)=O)cnc1CC(C)C		H37Rv				MIC	>12.5 µg/mL
COc1cc(/C=C/C(=O)O[C@H]2CC[C@@]3(C)C(CC[C@]4(C)C3CC=C3C5[C@@H](C)[C@H](C)CC[C@]5(C(=O)O)CC[C@]34C)C2(C)C)ccc1O		H37Ra		resazurin		MIC	3.13 µg/mL
CCCCc1c2c(nn1C(=O)C=C(C)C)C(=O)C=C(Nc1ccccc1)C2=O		H37Rv		BACTEC		MIC bound	>6.25 µg/mL
O=C(Nc1ccc(Cl)c(Cl)c1)c1cc([N+](=O)[O-])ccc1O		CNCTC MY331/88				MIC	8 µM
O=c1[nH]c(=O)c2[nH]c(=O)n(-c3ccc(Cl)cc3)c2[nH]1	12.5 µg/mL	H37Rv		BACTEC		inhibition	7%
CC(C)Cc1ncc(C(N)=O)nc1Sc1ccccc1		H37Rv				MIC	>12.5 µg/mL
CCn1cc(C(=O)O)c(=O)c2cc(F)c(N3CCN(C)CC3)cc21		CIPT 140010072				MIC	5 µg/mL

The last 9 rows once more:

CC(CC(=O)NN)Nc1ccc2ccccc2c1 ; strain: H37Rv ; read-out: EC50 ; value: 5 µg/mL
CC1=CC(=O)c2c(O)cccc2C1=O ; strain: H37Rv ; method: resazurin ; read-out: MIC ; value: 21.3 µM
CCSc1nc(C(N)=O)cnc1CC(C)C ; strain: H37Rv ; read-out: MIC ; value: >12.5 µg/mL
COc1cc(/C=C/C(=O)O[C@H]2CC[C@@]3(C)C(CC[C@]4(C)C3CC=C3C5[C@@H](C)[C@H](C)CC[C@]5(C(=O)O)CC[C@]34C)C2(C)C)ccc1O ; strain: H37Ra ; method: resazurin ; read-out: MIC ; value: 3.13 µg/mL
CCCCc1c2c(nn1C(=O)C=C(C)C)C(=O)C=C(Nc1ccccc1)C2=O ; strain: H37Rv ; method: BACTEC ; read-out: MIC bound ; value: >6.25 µg/mL
O=C(Nc1ccc(Cl)c(Cl)c1)c1cc([N+](=O)[O-])ccc1O ; strain: CNCTC MY331/88 ; read-out: MIC ; value: 8 µM
O=c1[nH]c(=O)c2[nH]c(=O)n(-c3ccc(Cl)cc3)c2[nH]1 ; tested at: 12.5 µg/mL ; strain: H37Rv ; method: BACTEC ; read-out: inhibition ; value: 7%
CC(C)Cc1ncc(C(N)=O)nc1Sc1ccccc1 ; strain: H37Rv ; read-out: MIC ; value: >12.5 µg/mL
CCn1cc(C(=O)O)c(=O)c2cc(F)c(N3CCN(C)CC3)cc21 ; strain: CIPT 140010072 ; read-out: MIC ; value: 5 µg/mL